Like-named read-outs stand apart in the source and are kept apart here.
Experiments:
[1] = target: T1, S. mansoni TGR (Schistosoma mansoni, UniProt Q962Y6); settings: read-out: IC50 S. mansoni TGR, DTNB (TrxR activity), 3 mM DTNB, 15 min preincubation with 100 μM NADPH
[2] = target: T1, S. mansoni TGR; settings: read-out: IC50 S. mansoni TGR, GSSG (GR activity), 100 μM GSSG, 15 min preincubation with 100 μM NADPH

The chains behind the UniProt entries cited, without tags or fusion partners. Residues count along the entry.
UniProt Q962Y6, 1-598: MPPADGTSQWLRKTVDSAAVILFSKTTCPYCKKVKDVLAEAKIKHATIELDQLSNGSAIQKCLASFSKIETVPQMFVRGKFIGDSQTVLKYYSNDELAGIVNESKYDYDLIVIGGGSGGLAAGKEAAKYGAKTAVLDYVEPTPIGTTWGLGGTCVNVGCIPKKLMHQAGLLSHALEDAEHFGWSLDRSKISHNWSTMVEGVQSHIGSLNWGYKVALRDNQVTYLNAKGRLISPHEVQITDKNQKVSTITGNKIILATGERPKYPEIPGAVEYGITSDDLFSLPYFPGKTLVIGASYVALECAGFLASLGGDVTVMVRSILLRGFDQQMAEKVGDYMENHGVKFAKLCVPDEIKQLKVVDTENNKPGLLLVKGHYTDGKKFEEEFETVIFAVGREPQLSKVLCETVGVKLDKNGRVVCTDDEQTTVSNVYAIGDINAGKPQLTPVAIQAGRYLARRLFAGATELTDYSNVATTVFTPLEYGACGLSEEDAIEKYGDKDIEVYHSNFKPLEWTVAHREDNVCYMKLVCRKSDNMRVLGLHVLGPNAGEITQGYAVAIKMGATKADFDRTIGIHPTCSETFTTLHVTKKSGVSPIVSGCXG

| Structure (SMILES) | IC50 [1] [µM] | IC50 [2] [µM] | IC50 ([1]; tested form: HCl) [µM] | IC50 ([2]; tested form: HCl) [µM] |
| --- | --- | --- | --- | --- |
| CC(C)(C)OC(=O)NCCCC1=C(CCCNC(=O)OC(C)(C)C)C(=O)c2c(O)cccc2C1=O | 8 | 8 |  |  |
| CN(C)CCC(=O)/C=C/c1ccccc1Cl |  |  | 7 | 0.5 |
| CC1=C(CBr)C(=O)c2c(O)ccc(O)c2C1=O | 0.5 | 1 |  |  |

From PMC1892040 (PLoS Medicine, 2007)
